Pooled drug test results. Numbers come from NIAID ChemDB, via PubChem.

Common to all: whole-cell or culture tests; agent: HIV-1; cells: CEM; read-out: EC50

An empty or dashed field is not shown. Neighbouring rows are from separate reports. ECn: concentration that inhibits the pathogen or its effect by n%.

compound	strain or isolate	changes	method	value
COc1ccc(NC(=O)c2ccccc2SSc2ccccc2C(=O)Nc2ccc(OC)cc2)cc1	-	-	cytopathic effect / XTT	5 µM
Cc1cn([C@@H]2O[C@@H]3CN[C@@]4(OCc5ccccc5)CS(=O)(=O)O[C@@]34[C@H]2O)c(=O)[nH]c1=O	IIIB	-	-	>100 µM
CC(C)C[C@@H](CO)NC(=O)c1ccccc1SSc1ccccc1C(=O)N[C@H](CO)CC(C)C	-	-	cytopathic effect / XTT	>12 µM
CC1=C(C(=O)N(C)c2ccc(Cl)c(C(=O)OC(C)C)c2)SCCO1	TIBO-resistant (RT L100I)	RT-L100I	syncytia	>10 µg/mL
CC(C)OC(=O)c1cc(NC(=S)OC(C)C)ccc1Cl	-	RT-L100I	syncytia	2.06 µM
CCCc1c(Cc2cccc3ccccc23)n(COCc2ccccc2)c(=O)[nH]c1=O	LAV	-	-	0.22 µM
CCC(C)OC(=S)Nc1ccc(Cl)c(C(=O)OC(C)(C)C)c1	-	RT-L100I	syncytia	1.89 µM
Cc1cn([C@@H]2O[C@@H]3CN[C@@]4(OCC5CCOC5)CS(=O)(=O)O[C@@]34[C@H]2O[Si](C)(C)C(C)(C)C)c(=O)[nH]c1=O	IIIB	-	-	>50 µM
CCOC(=O)c1cc(NC(=S)OC(C)C)ccc1C	-	RT-V106A	syncytia	≥35.54 µM
CC1=C(C(=O)Nc2ccc(Cl)c(C(=O)OC3CCCC3)c2)SCCO1	TSAO-resistant (RT E138K)	RT-E138K	syncytia	0.55 µg/mL
CC(C)c1c(Cc2cccc3ccccc23)n(COCc2ccccc2)c(=O)[nH]c1=O	LAV	-	-	0.048 µM
Cc1cn([C@@H]2O[C@@H]3CN[C@@]4(OCCO)CS(=O)(=O)O[C@@]34[C@H]2O[Si](C)(C)C(C)(C)C)c(=O)[nH]c1=O	IIIB	-	-	11 µM
CC(C)OC(=S)Nc1ccc(Cl)c(C(=O)OCC2CC2)c1	-	RT-E138K	syncytia	1.83 µM
CC[C@@H](C)[C@@H](NC(=O)c1ccccc1SSc1ccccc1C(=O)N[C@@H](C(=O)O)[C@H](C)CC)C(=O)O	-	-	cytopathic effect / XTT	6.3 µM
CC(C)OC(=S)Nc1ccc(Cl)c(C(=O)OCc2ccccc2)c1	-	RT-Y181C	syncytia	15.1 µM
O=C(Nc1ccc(S(=O)(=O)Nc2ncccn2)cc1)c1ccccc1SSc1ccccc1C(=O)Nc1ccc(S(=O)(=O)Nc2ncccn2)cc1	-	-	cytopathic effect / XTT	12 µM
CCc1c(Cc2ccc3ccccc3c2)n(COC)c(=O)[nH]c1=O	LAV	-	-	>12.34 µM
CC(C)OC(=S)Nc1ccc(Cl)c(C(=O)OC(C(C)C)C(C)C)c1	-	RT-E138K	syncytia	≥2.689 µM
CCSCC1=C(C(=O)Nc2ccc(Cl)c(C(=O)OC(C)C)c2)SCCO1	TIBO-resistant (RT L100I)	RT-L100I	syncytia	7 µg/mL
C=CCSc1cc(NC(=S)OC(C)C)ccc1Cl	-	RT-Y181C	syncytia	14.34 µM
CC1=C(C(=O)Nc2ccc(Cl)c(C(=O)OCC3CCC3)c2)SCCO1	TIBO-resistant (RT L100I)	RT-L100I	syncytia	1.9 µg/mL
CCO[C@]12CS(=O)(=O)O[C@@]13[C@@H](CN2)O[C@@H](n1ccc(=O)[nH]c1=O)[C@@H]3O[Si](C)(C)C(C)(C)C	IIIB	-	-	>50 µM
CC[C@@H](C)OC(=S)Nc1ccc(Cl)c(C(=O)OC(C)C)c1	-	RT-Y181C	syncytia	1.819 µM
CN[C@@H]1[C@H](O[C@@H]2OC[C@@H](O)[C@H](O)[C@H]2O)[C@@H](O)[C@H](O[C@H]2c3cc(C)c(C(=O)N[C@H](C)C(=O)O)c(O)c3-c3c(cc4c(c3O)C(=O)c3cc(OC)cc(O)c3C4=O)[C@@H]2O)O[C@@H]1C	Mutant AH_4/#58	-	syncytia	4.7 µM
COCCOC(=O)c1cc(NC(=O)C2=C(C)OCCS2)ccc1Cl	Nevirapine-resistant (RT V106A)	RT-V106A	syncytia	>10 µg/mL
C/C=C\COc1cc(NC(=S)OC(C)C)ccc1Cl	IIIB	RT-K101E	-	0.033 µM
CC1=C(C(=O)Nc2cc(C(=O)OC(C)C)c(Cl)cc2F)SCCO1	TSAO-resistant (RT E138K)	RT-E138K	syncytia	>10 µg/mL
C=CCOC(=S)Nc1ccc(Cl)c(C(=O)OC(C)C)c1	IIIB	-	syncytia	0.19 µM
CCOC(=O)c1cc(NC(=O)C2=C(CC)OCCS2)ccc1Cl	Nevirapine-resistant (RT V106A)	RT-V106A	syncytia	7 µg/mL
CC(C)OC(=O)c1cc(NC(=S)SC(C)C)ccc1Cl	IIIB	-	syncytia	19.6 µM
CCO[C@]12CS(=O)(=O)O[C@@]13C(CN2)O[C@@H](n1cc(C)c(=O)[nH]c1=O)[C@@H]3O[Si](C)(C)C(C)(C)C	IIIB	-	-	7.7 µM
CCc1c(Cc2ccc3ccccc3c2)n(COCc2ccccc2)c(=O)[nH]c1=O	LAV	-	-	3.324 µM
COC(=O)c1cc(NC(=S)OC(C)C)ccc1Cl	-	RT-E138K	syncytia	26.06 µM
Cc1cn([C@@H]2OC3CN[C@@]4(OCC(C)C)CS(=O)(=O)O[C@@]34[C@H]2O[Si](C)(C)C(C)(C)C)c(=O)[nH]c1=O	IIIB	-	-	8 µM
CC(C)OC(=S)Nc1ccc(Cl)c(C(=O)OC2CCCC2)c1	-	RT-L100I	syncytia	2.194 µM
Cc1cn([C@@H]2O[C@@H]3CN[C@H]4CS(=O)(=O)O[C@]43[C@H]2O[Si](C)(C)C(C)(C)C)c(=O)[nH]c1=O	IIIB	-	-	30 µM
O=C(c1ccccc1SSc1ccccc1C(=O)N1CCOCC1)N1CCOCC1	-	-	cytopathic effect / XTT	>50 µM
CCCOC12CS(=O)(=O)OC13[C@@H](CN2)O[C@@H](n1cc(C)c(=O)[nH]c1=O)[C@@H]3O	IIIB	-	-	>250 µM
Cc1c(Cc2ccc3ccccc3c2)n(COCc2ccccc2)c(=O)[nH]c1=O	LAV	-	-	3.444 µM

4 of the rows above, restated:

{"compound": "CC(C)OC(=O)c1cc(NC(=S)SC(C)C)ccc1Cl", "strain or isolate": "IIIB", "method": "syncytia", "value": "19.6 µM"}
{"compound": "CCSCC1=C(C(=O)Nc2ccc(Cl)c(C(=O)OC(C)C)c2)SCCO1", "strain or isolate": "TIBO-resistant (RT L100I)", "changes": "RT-L100I", "method": "syncytia", "value": "7 µg/mL"}
{"compound": "CCOC(=O)c1cc(NC(=O)C2=C(CC)OCCS2)ccc1Cl", "strain or isolate": "Nevirapine-resistant (RT V106A)", "changes": "RT-V106A", "method": "syncytia", "value": "7 µg/mL"}
{"compound": "CCOC(=O)c1cc(NC(=S)OC(C)C)ccc1C", "changes": "RT-V106A", "method": "syncytia", "value": "≥35.54 µM"}